The supplement of paper PMC9931576
Human monoclonal antibodies against the spike receptor-binding domain (heavy:light variable regions). IC50 against pseudoviruses bearing the spike of naturally observed variants; lower = stronger; >10 µg/ml means not reached at the top dose. No active / inactive call. The stated detection limit is 0.0005 µg/ml; values near or below 0.001 µg/ml lie at the floor of the assay.

B1: BD57-0406 (protein)
chain 1: EVQLVQSGAEVKKPGESLKISCKASGYTFTNYWIGWVRQMPGKGLEWMGIIYPDDSDTRYSPSFQGQVTISADKSINTAYLQWGSLKASDTATYFCARHALPYCGGECYHEWFDPWGQGTLVTVSS
chain 2: SYELTQPLSVSVALGQTARITCGGNNIGDTNVHWYQQKPGQAPVRVIYRNSNRPSGIPERFSGSNSGNTATLTISRAQAGDEADYYCQVRDSNTGPVFGGGTKLTVL
B2: BD57-0408 (protein)
chain 1: EVQLVESGGGLVQPGRSLRLSCAVSGFTFDDYAMHWVRQAPGKGLEWVSGVSWNSGTIGYADSVKGRFIIIRDNSKNSLYLHMKSLRVEDTAFYYCAKDVGRGFEGYSDKYGLDVWGQGTTVTVSS
chain 2: QSALTQPASVSGSPGQSITISCTGSSSDVGGYKYVSWYQQHPGKVPKLMIYDVSSRPSGISNRFSGSKAGNTASLTISGLRAEDEADYYCSSYTSSSIVIFGGGTKLTVL
B3: BD57-0411 (protein)
chain 1: EVQLVESGGGVVQPGGSLRLSCEASGFTFDDYAMHWVRQPPGKGLQWVSLISGDGSSTNYGDSVKGRFTISRDNSKTSLYLQMNNVRTEDTAIYYCAKDFGDPVPAAMRWYYFDYWGQGTLVTVSS
chain 2: QSVLTQPPSASGTPGQRVTISCSGSSSNIGRNYVFWYQHFPGTGPKLLIYRNNQRPSGVPERFSGSKSGTSASLAISGLRSEDEADYYCAAWDDSLSGSWVFGGGTKLTVL
B4: BG10-19 (protein)
chain 1: EVQLVQSGAEVKKPGESLKISCKGSGYSFTSYWIGWVRQMPGKGLEWMGVIYPGDSDTRYSPSFQGQVTISADKSISTAYLQWSSLKASDTAMYYCARTQWGYNYGSHFFYMDVWGKGTTVTVSS
chain 2: QSVLTQPPSASGTPGQRVTISCSGSSSNIGSDHVYWYQQLPGTAPKLFIYRNNQRPSGVPDRFSGSKSGTSASLAISGLRSEDEADYYCAAWDASLSGYVFGTGTKVTVL
B5: DH1046 (protein)
chain 1: EVQLVESGGGMVQPGGSLRLSCAASGFTFNNYAMNWVRQAPGKGLEWVSAISGSGIRTYYAESVKGRVTISRDNSKSTLYLQMNSLRAEDTAVYYCAKDLFYDFWSGFDFGPGESFGMDVWGQGTTVTVSS
chain 2: DIQMTQSPSTLSASVGDRVNITCRVSQRITSWLAWYQQKPGKAPKVLISKTSSLEGGVPSRFSGSGSGTEFTLTISSLQPDDFATYYCQQYSEFSYTFGQGTKLEIK
B6: DH1064 (protein)
chain 1: QVQLVESGGGVVQPGRSLRLSCTASGFTFSQYGMHWVRQAPGKGLEWVAGMSYDGNDKNYLDSVKGRFSISRDDSKSTQYLQMNSLRAEDTAVYYCAKKGSPYCGVDCYKGYFDYWGQGILVIVSS
chain 2: DIQMTQSPSSLSASVGDRVTITCQASHDINKYLSWYQHKPGKAPKIMTSDASNLEAGVPSRFSGGGSGTDFTLTINGLQPEDFATYYCQQYDRLPITFGQGTRLDIK
B7: DH1073 (protein)
chain 1: QVQLVQSGAEVRKPGASVKVSCKASGYTFTDYYIHWVRQAPGQGLEWMGIINPEAGSTTSAQRFQGRLIMTTDTSASTVYMELNSLTSADTAVYYCARDYFLIPAANTMEVWGQGTTVTVSS
chain 2: EIVLTQSPDTLSLSPGERATLSCRASQSVGTYLAWFQQKPGQPPRLLIYDASNRATGIPARFGGSGSGTDFTLTISSLEPEDFAVYYCQQRSNWPRTWTFGQGTKVEIK
B8: BG1-24 (protein)
chain 1: QVQLVQSGAEVKKPGSSVKVSCKASGGTFSSYAISWVRQAPGQGLEWMGRIISMFGIANNAQKFQGRLTITADTSTSTAYMELSSLRSEDTAVYYCARGPYYYDSGGYYLDYWGQGTLVTVSS
chain 2: EIVLTQSPGTLSLSPGERATLSCRASQSVGSGYLAWYQQRPGQAPRLLIYGASSRATGIPDRFSGSGSGTDFTLTISRLEPEDFAVYYCQQYAGSPRTFGQGTRLEIK
B9: BD55-2413 (protein)
chain 1: EVQLVQSGAEVKKPGESLKISCQGSGYNFANYWIGWVRQMPGKGLEWMGIIYPDDSDTRYSPTFRGQVTISADKSISTAYLQWSSLKASDTAMYYCARRGWDGYTSGTHYIGPVDYWGQGTLATVSS
chain 2: QSALTQPASVSGSPGQSITISCTGTSSDVGGYNFVSWYQHHPGKAPKLMIYDVTTRPSGISTRFSGSKSGNTASLTISGLQAEDEADYYCGSYTSSSILGVFGGGTKLTVL
B10: BD55-3151 (protein)
chain 1: VELVESGGGLVQPGGSLRLSCAASGFSFPNFWMHWVRQAPGKGLVWVSRIKSDGTATIYADSVKGRFSISRDNARNMLFLEMNSLKDDDTAVYYCVRDRGYYDISGNYYSAWFDPWGQGTQVTVAS
chain 2: SYFLTQPPSVSVAPGQTATITCEGNNIGDNSVHWYQQRPGQAPVVLLSDVRGRPSGIPGRISGSNSGNTATLTIARVAAGDEADYYCQVWDTTTDHPGGVFGGGTKLTVL
B11: BD55-3152 (protein)
chain 1: QVQLVQSGAEVKKPGASVIVSCKASGYRFISHYIHWVRQAPGQGLEWMGKIDPSGRGTTYAQKLQGRVSVTRDTSTSSVYMALSGLRSDDTAVYYCARDRFPLSDPYVWGSPLGGLDVWGQGTTVIVSS
chain 2: SYDLTQPPSVSVSPGQTARITCSGDALPSQYVYWYQQRPGQAPVLVMYKDSERPPGIPERFSGSTSGTTATLTITGVQAEDEADYYCQSADASTTYHVFGGGTKVTVV
B12: BD55-3372 (protein)
chain 1: EVHLVESGGGLVKPGGSLRLSCAASGFTFSNYAMNWVRQAPGKGLQWVSSITGSSSFIFYADSVKGRFTIVRDNAQNSLYLQMNSLRDEDTAVYYCARERDDYDTRLDWGQGTLVTVSS
chain 2: QPMLTQPPSVSGAPGQTVTISCVGSSSNIGAGYEVHWYQQLPGTAPKRLLSGNSDRPSGVPDRFSGSKSGTSASLAITGLQADDEADYYCQSYDSSLSLSAVVFGGGTKLTVL

target: SARS-CoV-2 Omicron BA.1 spike pseudovirus; assay: pseudovirus neutralization IC50; higher = weaker neutralization
Protocol: (§1)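 Single-round VSV luciferase pseudovirus mixed with antibody dilutions for 1 h and put on Huh-7 cells for about a day; IC50 from the dose curve.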

Binder	pseudovirus neutralization IC50 [µg/mL]
B1	0.911
B2	0.161
B3	0.392
B4	> 10
B5	> 10
B6	> 10
B7	6.01
B8	> 10
B9	> 10
B10	> 10
B11	0.253
B12	0.0203

target: SARS-CoV-2 Omicron BA.2 spike pseudovirus; assay: as above
Protocol: as §1

Binder	pseudovirus neutralization IC50 [µg/mL]
B1	1.47
B2	0.172
B3	0.187
B4	> 10
B5	> 10
B6	> 10
B7	4.29
B8	> 10
B9	> 10
B10	> 10
B11	0.179
B12	0.0322

target: SARS-CoV-2 Omicron BA.2.75 spike pseudovirus; assay: as above
Protocol: as §1

Binder	pseudovirus neutralization IC50 [µg/mL]
B1	1.91
B2	0.0913
B3	0.0552
B4	> 10
B5	> 10
B6	> 10
B7	5.34
B8	> 10
B9	> 10
B10	> 10
B11	0.103
B12	0.0321

target: SARS-CoV-2 Omicron BA.5 spike pseudovirus; assay: as above
Protocol: as §1

Binder	pseudovirus neutralization IC50 [µg/mL]
B1	3.6
B2	0.191
B3	> 10
B4	> 10
B5	> 10
B6	> 10
B7	1.87
B8	> 10
B9	> 10
B10	> 10
B11	0.565
B12	0.0148

target: SARS-CoV-2 Omicron BQ.1.1 spike pseudovirus; assay: as above
Protocol: as §1

Binder	pseudovirus neutralization IC50 [µg/mL]
B1	4.89
B2	> 10
B3	> 10
B4	> 10
B5	> 10
B6	> 10
B7	2.39
B8	> 10
B9	> 10
B10	> 10
B11	> 10
B12	0.0231

target: SARS-CoV-2 Omicron XBB spike pseudovirus; assay: as above
Protocol: as §1

Binder	pseudovirus neutralization IC50 [µg/mL]
B1	4.04
B2	3.42
B3	> 10
B4	> 10
B5	> 10
B6	> 10
B7	3.06
B8	> 10
B9	> 10
B10	> 10
B11	> 10
B12	0.012

target: SARS-CoV-2 early D614G spike pseudovirus; assay: as above
Protocol: as §1

Binder	pseudovirus neutralization IC50 [µg/mL]
B1	2.6
B2	0.0445
B3	0.000601
B4	0.0031
B5	0.79
B6	> 10
B7	1.25
B8	0.001
B9	> 10
B10	> 10
B11	0.0105
B12	0.0068
